Measured values from several laboratories, pooled; numbers as filed in NIAID ChemDB.

All rows: whole-cell or culture tests; agent: Staphylococcus aureus

Conditions beyond the fields shown may differ between rows. A number after MIC or MFC names an inhibition level or a share of isolates.

| compound | read-out | strain or isolate | value |
|---|---|---|---|
| CCCCCCCCCCCC[N+](C)(C)COCC(C)C | MBC | ATCC33592 | 29.8 µM |
| CS(=O)(=O)N[C@@H]1CCN(c2ccc(N3C[C@H](COc4ccon4)OC3=O)cc2F)C1 | MIC | 122 (novobiocin-resistant) | 1 µg/mL |
| Cc1c(NCCO)c(F)cc2c(=O)c(C(=O)O)cn(-c3cc(N)c(F)cc3F)c12 | MIC | W200 (methicillin-resistant) | 0.03 µg/mL |
| O=C1O[C@@H](COc2ccon2)CN1c1ccc(N2CCOCC2)c(F)c1 | MIC | 004 (methicillin quinolone-resistant) | 2 µg/mL |
| CCCCCCCCCCSC[N+](C)(C)CCCCCCCC | MBC | ATCC 6538 | 26.3 µM |
| CNC(=O)N[C@H]1CCN(c2ccc(N3C[C@H](CNc4ccon4)OC3=O)cc2F)C1 | MIC | 122 (novobiocin-resistant) | 0.5 µg/mL |
| NCCCCCCNc1cc2c(cc1F)c(=O)c(C(=O)O)cn2-c1ccc(F)cc1F | MIC | ATCC 6538P | 3.1 µg/mL |
| CCCCCCCCCCCC[N+](C)(C)COCC | MIC | ATCC 6538 | 4.87 µM |
| CNC1CCN(c2cc3c(cc2F)c(=O)c(C(=O)O)cn3C2CC2)CC1 | MIC | ATCC 5278 (methicillin-resistant) | 3.12 µg/mL |
| CCCCCCCCCCCC[N+](C)(C)COCCCCCCCC | MIC | ATCC 6538 | 0.77 µM |
| O=C(O)c1cn(C2CC2)c2cc(NCCO)c(F)cc2c1=O | MIC | ATCC 5278 (methicillin-resistant) | 12.5 µg/mL |
| Cc1c(N)c(F)cc2c(=O)c(C(=O)O)cn(-c3cc(N)c(F)cc3F)c12 | Mean MIC | 27 isolates | 0.01 µg/mL |
| CCN(CC)CCN(C)c1cc2c(cc1F)c(=O)c(C(=O)O)cn2C1CC1 | MIC | ATCC 5278 (methicillin-resistant) | >100 µg/mL |
| CCCCCCCCCCCC[N+](C)(C)COCCCCCCC | MBC | ATCC 6538 | 2.64 µM |
| NCCCCCNc1cc2c(cc1F)c(=O)c(C(=O)O)cn2C1CC1 | MIC | ATCC 6538P | >100 µg/mL |
| CS(=O)(=O)N[C@H]1CCN(c2ccc(N3C[C@H](CNc4ccon4)OC3=O)cc2F)C1 | MIC | 122 (novobiocin-resistant) | 0.5 µg/mL |
| CN1CCN(C)c2cc3c(cc21)c(=O)c(C(=O)O)cn3C1CC1 | MIC | ATCC 6538P | >100 µg/mL |
| Cc1c(NCCCO)c(F)cc2c(=O)c(C(=O)O)cn(-c3cc(N)c(F)cc3F)c12 | MIC90 | 27 isolates | 0.03 µg/mL |

A second listing of 2 rows from above:

{"compound": "CN1CCN(C)c2cc3c(cc21)c(=O)c(C(=O)O)cn3C1CC1", "read-out": "MIC", "strain or isolate": "ATCC 6538P", "value": ">100 µg/mL"}
{"compound": "CCCCCCCCCCCC[N+](C)(C)COCCCCCCCC", "read-out": "MIC", "strain or isolate": "ATCC 6538", "value": "0.77 µM"}